Target: Acetylcholinesterase (AChE) (Electrophorus electricus, UniProt O42275)
Settings: co-contaminant present in sample

Chains of the proteins cited; added tags and fusions are not shown. Lines headed by an entry give the natural chain unless they say otherwise; changes in a name come on top.
UniProt O42275: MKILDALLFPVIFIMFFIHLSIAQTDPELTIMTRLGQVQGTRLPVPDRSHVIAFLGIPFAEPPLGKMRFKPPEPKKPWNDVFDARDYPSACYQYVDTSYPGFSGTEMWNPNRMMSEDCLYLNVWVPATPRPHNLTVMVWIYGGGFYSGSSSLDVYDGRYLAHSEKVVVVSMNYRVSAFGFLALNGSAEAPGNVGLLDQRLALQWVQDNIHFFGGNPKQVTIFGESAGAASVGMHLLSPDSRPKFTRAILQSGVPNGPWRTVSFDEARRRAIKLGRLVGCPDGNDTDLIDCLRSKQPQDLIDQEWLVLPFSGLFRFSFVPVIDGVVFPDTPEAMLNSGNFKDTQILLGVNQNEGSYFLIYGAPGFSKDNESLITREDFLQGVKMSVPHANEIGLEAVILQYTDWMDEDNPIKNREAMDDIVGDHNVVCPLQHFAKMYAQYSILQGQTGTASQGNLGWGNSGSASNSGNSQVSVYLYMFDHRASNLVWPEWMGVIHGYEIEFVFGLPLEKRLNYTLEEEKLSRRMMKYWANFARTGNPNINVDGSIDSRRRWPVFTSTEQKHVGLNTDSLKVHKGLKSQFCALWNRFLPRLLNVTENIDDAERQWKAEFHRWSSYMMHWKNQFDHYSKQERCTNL

Aflatoxin M1
Interference with analysis of organophosphates: no interference
